In data set [1] the test system is HCV genotype 1b Con1 replicon cells. In words: Isolation of resistant replicons, genotype 1b. It is filed as cell-based, Hepatitis C virus.
For data set [2], the system named is HCV genotype 2a JFH1 replicon cells. In words: Isolation of resistant replicons, genotype 2a. Type of data set: cell-based, Hepatitis C virus. (In antiviral work, replicon cells carry a viral genome segment that copies itself.)

From patent US20140127158A1, “COMBINATION THERAPY FOR HEPATITIS C VIRUS INFECTION” (National Health Research Institute, priority 2012, published 2014) come the findings set out here.

With `O=C(N[C@@H](C(=O)N1CCC[C@H]1c1ncc(-c2ccc(-c3ccc(-c4cnc([C@@H]5CCCN5C(=O)[C@H](NC(=O)C5CC5)c5ccccc5)s4)cc3)cc2)s1)c1ccccc1)C1CC1` [DBPR110], in data set [1] (0.2 nM DBPR110 selection), the “frequency of NS5A mutation M202L in resistant clones” value came out at 47%, the “frequency of NS5A mutation M265V in resistant clones” value was 40%, the “frequency of NS5A mutation P58L/T in resistant clones” value was found to be 20% and the “frequency of NS5A mutation V153M in resistant clones” value came to 53%. The “frequency of NS5A mutation Y93N/H in resistant clones” value in data set [1] (0.2 nM DBPR110 selection) came out at 73%. Also, in data set [1] (200 nM DBPR110 selection), the “cDNA clones containing Y93N, V153M, M202L, and M265V” value came to 100%. Further, in data set [2] (60 nM DBPR110 selection), the “frequency of NS5A mutation P58L in resistant clones” value is recorded as 50% and the “frequency of NS5A mutation T24A in resistant clones” value was 50%. In addition, the “cDNA clones containing only the mutation Y93H” value in data set [2] (1 μM DBPR110 selection) came out at 100%.
